Results of unrelated studies side by side (data: NIAID ChemDB).

Shared fields: growth or infection tests

Percent inhibition refers to the dose given; in toxicity tests it is the harm to the cells. Rows are shuffled and stem from different studies. ECn is the concentration giving n% inhibition of infection, replication or growth. Blank or dashed fields: not listed here.

structure,cell line,strain,read by,species,endpoint,tested at,result
NC(=O)c1nc(F)c[nH]c1=O,MDCK,Nagasaki/1/87,plaque count,Influenza B virus,EC50,,0.089 µg/mL
NC12CC3CC(CC(C3)C1)C2,MDCK,,plaque count,Influenza A virus,EC90,,1 µg/mL
CN1CCC2(C1)C1CC3CC(C1)CC2C3,,A/University of Maryland/2/72,,Influenza A virus,MIC,,0.1 µg/mL
COc1ncnc(N2CC[N+]3(CC2)CC[N+]2(CCN(c4ncnc(OC)c4[N+](=O)[O-])CC2)CC3)c1[N+](=O)[O-],MDCK,,cytopathic effect,Influenza A virus,EC50,,>70 µg/mL
Nc1nc(-c2ccc(Br)cc2Br)c(SCC(=O)Nc2ccccc2N)s1,MDCK cells,A/PR/8/34,MTS,Influenza A virus (H1N1),EC50,,0.73 µM
Nc1ccn([C@@H]2C[C@H](CO)[C@@H](O)[C@H]2O)c(=O)n1,MDCK,,cytopathic effect,Influenza C virus,EC50,,4.5 µg/mL
NC12CC3CC(CC(C3)C1)C2,,A/England/42/72,,Influenza A virus,MIC,,0.05 µg/mL
N#Cc1ccc(N2CC[N+]3(CC2)CC[N+]2(CCN(c4ccc(C#N)cc4[N+](=O)[O-])CC2)CC3)c([N+](=O)[O-])c1,MDCK,,cytopathic effect,Influenza A virus,EC50,,>70 µg/mL
NC12CC3CC(CC(C3)C1)C2,MDCK,H1N1 A/TEXAS/36/91,neutral red,Influenza A virus,EC50,,2 µM
CC(N)C12CC3CC(CC(C3)C1)C2,MDCK,Influenza A/Mississippi/1/85 (H3N2),,Influenza A virus,EC50,,<0.27 µM
N=C(N)c1ncn([C@@H]2O[C@H](CO)[C@@H](O)[C@H]2O)n1,MDCK,B/HONG KONG/5/72,virus yield,Influenza B virus,inhibition,5 µg/mL,90%
O=C(CCCc1ccccc1)N1CC[N+]2(CC1)CC[N+]1(CCN(C(=O)CCCc3ccccc3)CC1)CC2,MDCK,,cytopathic effect,Influenza A virus,EC50,,>70 µg/mL
C[C@@H]1CCC[C@@H]2C[C@@H](NC(=O)c3cc(N=[N+]=[N-])ccc3O)CCN21,MDBK,H1N1 A/WSN/33,plaque count,Influenza A virus,EC50,,0.5 µg/mL
NC(=O)c1ncn([C@@H]2O[C@H](CO)[C@@H](O)[C@H]2O)n1,MDCK,,plaque count,Influenza A virus,EC90,,6.14 µg/mL

Again, the opening 2 rows:

structure	cell line	strain	read by	species	endpoint	tested at	result
NC(=O)c1nc(F)c[nH]c1=O	MDCK	Nagasaki/1/87	plaque count	Influenza B virus	EC50		0.089 µg/mL
NC12CC3CC(CC(C3)C1)C2	MDCK		plaque count	Influenza A virus	EC90		1 µg/mL